Anti-infective test results gathered from many reports (values: NIAID ChemDB through PubChem).

Percent inhibition refers to the dose given; in toxicity tests it is the harm to the cells.

SMILES,cell line,read by,protein,measure,strain,test,dose,species,result
Fc1ccc(N2CCCCC2)c(NC(=S)c2ccncc2)c1,-,kinase activity,TrkB,inhibition,-,host protein,10 µM,-,41%
COc1ccc(C2CC(=O)c3c(cc(OC)c(OC)c3OC)O2)cc1,-,BACTEC,-,MIC bound,H37Rv,culture,-,Mycobacterium tuberculosis,>12.5 µg/mL
Cc1ccc(OP(Oc2ccc(C)cc2)Oc2ccc(C)cc2)cc1,-,-,-,MIC,H37Rv,culture,-,Mycobacterium tuberculosis,>100 µg/mL
C[C@@H](NCCNCCC(c1ccccc1)c1ccccc1)C1CCCCC1,-,-,-,MIC,-,culture,-,Mycobacterium tuberculosis,6.25 µM
C=CCc1ccc(OC)c(OC)c1,-,turbidity,-,MIC90,177,culture,-,Candida albicans,345 µg/mL
Cc1cnc2sn(-c3ccc([N+](=O)[O-])cc3)c(=O)c2c1,-,resazurin,-,inhibition,H37Rv,culture,6.25 µg/mL,Mycobacterium tuberculosis,-29%
O=C1C(=O)C(=O)C(=O)C(=O)C1=O,-,-,-,MIC,H37Rv,culture,-,Mycobacterium tuberculosis,>100 µg/mL
CCN(CC)CCNc1ccc(N)c2sc3ccccc3c(=O)c12,-,BACTEC,-,MIC bound,H37Rv,culture,-,Mycobacterium tuberculosis,>12.5 µg/mL
O=C(O)/C=C/C(=O)O,-,-,-,MIC,H37Rv,culture,-,Mycobacterium tuberculosis,>100 µg/mL
Cc1ccc(CNCCNCc2ccccc2)cc1,-,-,-,MIC,-,culture,-,Mycobacterium tuberculosis,25 µM
NC(=O)c1ccc(-c2ccccc2)cc1N,-,-,-,MIC,H37Rv,culture,-,Mycobacterium tuberculosis,>100 µg/mL
CCCCCCCCCCCNCCNCc1cccc(F)c1,-,-,-,MIC,-,culture,-,Mycobacterium tuberculosis,50 µM
CCCCc1ccc2ccccc2n1,-,-,-,MIC,H37Rv,culture,-,Mycobacterium tuberculosis,>100 µg/mL
CCOC(=O)C1=C(O)C2(CC(C)=C(C)CS2=O)SC1=Nc1ccccc1,-,resazurin,-,MIC bound,H37Rv,culture,-,Mycobacterium tuberculosis,>6.25 µg/mL
O=C1NC(=O)C(Cl)=C1Cl,-,-,-,MIC,H37Rv,culture,-,Mycobacterium tuberculosis,>100 µg/mL
Cc1cc(C)c2c(c1)NP(=S)(c1ccccc1)N2,-,resazurin,-,inhibition,H37Rv,culture,6.25 µg/mL,Mycobacterium tuberculosis,-5%
Cc1cc(O)c(C=O)c(O)c1,-,-,-,MIC,H37Rv,culture,-,Mycobacterium tuberculosis,>100 µg/mL
CC1(C)C(=O)CC[C@]2(C)[C@H]3CC[C@@]4(C)[C@H](c5ccoc5)OC(=O)[C@H]5O[C@]54[C@]3(C)[C@H](O)C[C@@H]12,-,BACTEC,-,MIC bound,H37Rv,culture,-,Mycobacterium tuberculosis,>12.5 µg/mL
CCOc1ccccc1CNCCNC[C@]1(C)CCC[C@]2(C)c3ccc(C(C)C)cc3CC[C@@H]12,-,-,-,MIC,-,culture,-,Mycobacterium tuberculosis,25 µM
CN1C(=O)C2(C)SSC1(C)C(=O)N2C,VERO,BACTEC,-,MIC,H37Rv,culture,-,Mycobacterium tuberculosis,>12.5 µg/mL
CCC(C)NCCNC[C@]1(C)CCC[C@]2(C)c3ccc(C(C)C)cc3CC[C@@H]12,-,-,-,MIC,-,culture,-,Mycobacterium tuberculosis,12.5 µM
NOCc1csc(N)n1,-,BACTEC,-,MIC bound,H37Rv,culture,-,Mycobacterium tuberculosis,>6.25 µg/mL
CCCCC(CC)CN1CN(CC(CC)CCCC)CC(C)(NCCNCC(c2ccccc2)c2ccccc2)C1,-,-,-,MIC,-,culture,-,Mycobacterium tuberculosis,25 µM
CCN1CC(C(=O)NC(C)C(=O)O)Cc2ccccc21,-,BACTEC,-,MIC bound,H37Rv,culture,-,Mycobacterium tuberculosis,>12.5 µg/mL
Brc1cc[c]([Pb]([c]2ccccc2)([c]2ccccc2)[c]2ccc(Br)cc2)cc1,-,-,-,MIC,H37Rv,culture,-,Mycobacterium tuberculosis,50 µg/mL
CCC(C)(C)NCCNCc1ccc(OC)c(OC)c1,-,-,-,MIC,-,culture,-,Mycobacterium tuberculosis,25 µM
CCn1cc(C(=O)O)c(=O)c2cnc(N3CCCC3)nc21,-,resazurin,-,MIC bound,H37Rv,culture,-,Mycobacterium tuberculosis,>6.25 µg/mL
O=C1c2ccccc2C(=O)c2c1c(O)c1ccccc1c2O,-,-,-,MIC,H37Rv,culture,-,Mycobacterium tuberculosis,>100 µg/mL
CC(=O)OC[C@H]1O[C@@H](Oc2ccc(C=C(C(C)=O)C(C)=O)cc2)[C@H](OC(C)=O)[C@@H](OC(C)=O)[C@@H]1OC(C)=O,-,resazurin,-,MIC bound,H37Rv,culture,-,Mycobacterium tuberculosis,>6.25 µg/mL
CCOc1ccccc1CNCCNC(c1ccccc1)c1ccccc1,-,-,-,MIC,-,culture,-,Mycobacterium tuberculosis,50 µM
CC(C)(C)SCCC(=O)O,-,-,-,MIC,H37Rv,culture,-,Mycobacterium tuberculosis,>100 µg/mL
C1CCCC(NCCNCC23CC4CC(CC(C4)C2)C3)CCC1,-,-,-,MIC,-,culture,-,Mycobacterium tuberculosis,12.5 µM
Nc1ccccc1OCCOCCOCCO,-,-,-,MIC,H37Rv,culture,-,Mycobacterium tuberculosis,100 µg/mL

For reference, 4 entries again:

SMILES	cell line	read by	protein	measure	strain	test	dose	species	result
CCC(C)(C)NCCNCc1ccc(OC)c(OC)c1	-	-	-	MIC	-	culture	-	Mycobacterium tuberculosis	25 µM
Cc1cnc2sn(-c3ccc([N+](=O)[O-])cc3)c(=O)c2c1	-	resazurin	-	inhibition	H37Rv	culture	6.25 µg/mL	Mycobacterium tuberculosis	-29%
CCCCCCCCCCCNCCNCc1cccc(F)c1	-	-	-	MIC	-	culture	-	Mycobacterium tuberculosis	50 µM
C[C@@H](NCCNCCC(c1ccccc1)c1ccccc1)C1CCCCC1	-	-	-	MIC	-	culture	-	Mycobacterium tuberculosis	6.25 µM

Blank or dashed fields: not listed here. Lines come from different laboratories, so protocols vary. MIC bound comes from a single tested concentration. MIC50, MIC90 and the like: level of inhibition, or share of isolates inhibited.